{
  "source": "paper PMC11662661",
  "molecular_target": "MucR (Brucella abortus) (UniProt A0A0H3AQN7)",
  "test": "EMSA",
  "conditions": "preferred over NS; recombinant protein",
  "note": "For at least one entry, the source does not settle the construct or the ends of the probe. At least one verdict was read from the data and is not stated in words by the source.",
  "data": [
    {"sequence": "ATGAAGTTATATTCAATATAAAAGTAGAAT (double strand) [babR30]", "values": [
      {"measurement": "binding result", "value": "binds"}
    ]}
  ]
}
